Results taken from paper PMC8703412 (Pharmaceuticals, 2021).

Key:
[1] = system: Mycobacterium kansasii 6509/96 (clinical isolate); assay: MIC micromethod in Šula's medium, M. kansasii; type: cell-based; conditions: SI = IC50 (HepG2)/MIC
[2] = system: Mycobacterium tuberculosis strain 331/88 (i.e., H37Rv); assay: MIC micromethod in Šula's medium, drug-susceptible Mtb.; type: cell-based; conditions: SI = IC50 (HepG2)/MIC

Row | SMILES | SI for M. kansasii 6509/96 [1] | SI for Mtb. 331/88 [2]
1 | COc1ccc(OC(=O)/C(C)=N/NC(=O)c2ccncc2)cc1 [3d, 4-Methoxyphenyl (E)-2-(2-isonicotinoylhydrazineylidene)propanoate] | ≥125 | ≥4000
2 | C/C(=N\NC(=O)c1ccncc1)C(=O)Oc1ccccc1 [3b, Phenyl (E)-2-(2-isonicotinoylhydrazineylidene)propanoate] | ≥125 | ≥4000
3 | CC(=O)Nc1ccc(OC(=O)C(C)=NNC(=O)c2ccncc2)cc1 [3p, 4-Acetamidophenyl 2-(2-isonicotinoylhydrazineylidene)propanoate] | ≥62.5 | ˃2000
4 | C/C(=N\NC(=O)c1ccncc1)C(=O)Sc1ccccc1 [3s, S-Phenyl (E)-2-(2-isonicotinoylhydrazineylidene)propanethioate] | ≥45.5 | 728
5 | C/C(=N\NC(=O)c1ccncc1)C(=O)Oc1ccc(Cl)cc1 [3g, 4-Chlorophenyl (E)-2-(2-isonicotinoylhydrazineylidene)propanoate] | ≥62.5 | ≥8000
6 | C/C(=N\NC(=O)c1ccncc1)C(=O)OCCn1c([N+](=O)[O-])cnc1C [3q, 2-(2-Methyl-5-nitro-1H-imidazol-1-yl)ethyl (E)-2-(2 isonicotinoylhydrazineylidene)propanoate] | ≥250 | ≥2000
7 | C/C(=N\NC(=O)c1ccncc1)C(=O)Oc1cccc2ccccc12 [3i, Naphthalen-1-yl (E)-2-(2-isonicotinoylhydrazineylidene)propanoate] | 3997 | 3997
